Test system: gp120-injected rats
Assay: HIV gp120-induced sensory neuropathy, mechanical allodynia
Conditions: 2 μg/5 μL intrathecal

## C[C@@H](c1ccccc1)n1nnnc1[C@@H](c1ccsc1)N1CCC(n2c(=O)[nH]c3ccccc32)CC1
  duration of reversal of mechanical allodynia, gp120: 4 h
  mechanical allodynia, gp120: reversal of mechanical allodynia
  time at which reversal of mechanical allodynia was seen, gp120: approximately 60 minutes

Source: patent publication US12606546B2, “Small molecule inhibitors of calcium channel activity and uses thereof” (Arizona Board of Regents on Behalf of the University of …, priority 2020, dated 2026)
